Results deposited as PubChem BioAssay AID1259414 (Drosophila RNAi Screening Center, 2018).
Aim: 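Fly genes that alter Wolbachia amount inside host cells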 (primary screen). Cells: Drosophila JW18 cells infected with Wolbachia. Knock-down reagent: long dsRNA against Drosophila genes, 0.25 µg dsRNA per well of a 384-well plate. Timing: 5 days. Treatment: cells persistently infected with Wolbachia before knock-down; no added drug. Measurement: 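Imaged fluorescence in situ signal for Wolbachia 23S rRNA per DAPI-counted host cell, given as a robust z-score within each plate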. Direction: Wolbachia per cell robust z: higher = more Wolbachia per host cell than the plate typical. Hit rule: 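Hit when robust z is 1.5 or more, or -1.5 or less, in at least two of three replicates; excludes dsRNAs with several or no targets, genes not expressed in JW18 and well A1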.
In all, the deposit lists about 24,000 reagents; below is a random part of those that have a named target and a result. Of all reagents, about 1,210 (5%) were called active. 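Inactive calls also include excluded dsRNAs with several or no targets, genes unexpressed in JW18, and well A1, regardless of score.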

target gene	dsRNA	Wolbachia per cell robust z, rep 1	Wolbachia per cell robust z, rep 2	Wolbachia per cell robust z, rep 3	Call
CG9222	DRSC03158	0.636	-10.4	-4.15	inactive
ksr	DRSC12379	-3.04	0.658	1.19	inactive
ksr	DRSC36701	0.697	0.163	0.0619	inactive
CG11345	DRSC08176	-4.7	-1.49	2.08	inactive
CG11345	DRSC28509	-0.65	-0.513	-0.502	inactive
CG30047	DRSC05340	-1.21	0.594	0.696	inactive
alpha-Est1	DRSC12612	0.886	0.815	-1.41	inactive
Mos	DRSC07258	-0.715	0.187	0.294	inactive
CG6118	DRSC23197	0.356	0.551	0.658	inactive
CG6118	DRSC29922	0.757	-0.795	0.22	inactive
Mst85C	DRSC16746	1.42	0.772	2.12	inactive
Mst85C	DRSC26445	-0.178	0.257	0.76	inactive
Gr68a	DRSC10803	-0.425	0.24	1.01	inactive

Part of the list above, set out differently:
target gene | dsRNA | Wolbachia per cell robust z, rep 1 | Wolbachia per cell robust z, rep 2 | Wolbachia per cell robust z, rep 3 | Call
CG30047 | DRSC05340 | -1.21 | 0.594 | 0.696 | inactive
alpha-Est1 | DRSC12612 | 0.886 | 0.815 | -1.41 | inactive
Mos | DRSC07258 | -0.715 | 0.187 | 0.294 | inactive
CG6118 | DRSC23197 | 0.356 | 0.551 | 0.658 | inactive

Additional reagents follow.
target gene	dsRNA	Wolbachia per cell robust z, rep 1	Wolbachia per cell robust z, rep 2	Wolbachia per cell robust z, rep 3	Call
Smyd3	DRSC17744	-2.13	-0.164	-0.368	inactive
Smyd3	DRSC26723	0.812	1.19	-0.11	inactive
Smyd3	DRSC38965	0.824	0.0571	0.512	inactive
Wdr59	DRSC02771	-1.3	-1.02	-0.281	inactive
Cpr92A	DRSC16000	-0.756	-0.497	0.338	inactive
Cpr92A	DRSC25340	-3.18	-1.51	-1.42	inactive
CG17906	DRSC41264	0.651	-1.55	-0.588	inactive
otp	DRSC04050	0.939	0.598	-0.897	inactive
otp	DRSC04707	0.915	1.45	1.14	inactive
PGAP2	DRSC00632	0.0325	1.08	0.404	inactive
PGAP2	DRSC28496	1.1	-0.335	0.694	inactive
eIF4E7	DRSC17782	-0.0307	-0.411	-1.03	inactive
eIF4E7	DRSC18623	-0.203	0.554	0.585	inactive
eEF5	DRSC04681	0.0312	-0.0219	-5.94	inactive
Ugt36A1	DRSC00748	-0.712	-1.48	0.32	inactive
Ugt36A1	DRSC29161	0.306	-1.32	0.661	inactive
